Results of unrelated studies side by side (data: NIAID ChemDB).

Common to all: tests in culture

ECn is the concentration giving n% inhibition of infection, replication or growth. MIC50, MIC90 and the like: level of inhibition, or share of isolates inhibited. Rows are shuffled and stem from different studies. Percent inhibition refers to the dose given; in toxicity tests it is the harm to the cells. Blank or dashed fields: not listed here. a–b is a range or a potency band.

compound,endpoint,cells,organism,tested at,strain or isolate,method,result
CCCc1cn([C@@H]2O[C@H](COP(=O)(O)O)[C@@H](O)[C@H]2O)c(=O)nc1N,EC50,-,Vesicular stomatitis virus,-,-,-,>400 µg/mL
OC[C@@H]1O[C@H](n2c(Br)nc3cc(Cl)c(Cl)cc32)[C@@H](O)[C@H]1O,EC50,MRC-5,Human cytomegalovirus,-,AD169,hybridisation,0.9 µM
CCNC/C=C\CNCCCCNCCCCNC/C=C\CNCC,EC50,-,Encephalitozoon cuniculi,-,-,-,>1000 µM
CC[C@@H](C(C)C)[C@@H](O)[C@H](O)[C@@H](C)[C@H]1CC[C@H]2[C@@H]3CC(=O)[C@H]4C[C@H](O)[C@H](O)C[C@]4(C)[C@H]3CC[C@]12C,EC50,VERO,Pichinde virus,-,AN3739,plaque count,3.9 µM
Nc1nc2c(ncn2COCCO)c(=O)[nH]1,inhibition,HELF,Varicella zoster virus,1 µg/mL,Kawaguchi,plaque count,75%
Nc1nc2c(ncn2COC2COP(=O)(O)OC2)c(=O)[nH]1,EC50,GPE,Guinea pig cytomegalovirus,-,-,plaque count,1.84 µM
Cc1ccc(CCCOc2c(C)cc(-c3noc(C)n3)cc2C)nn1,EC50,HeLa,Enterovirus,-,-,cytopathic effect,0.033–0.659 µg/mL
C=CCc1ccc(O)c(OC)c1,MIC90,-,Candida glabrata,-,2994,turbidity,500 µg/mL
CCN(CC)CCN1C(=O)c2ccccc2NC1c1ccc(N(C)C)cc1,EC50,-,Plasmodium berghei,-,ANKA,luciferase,1 µM
O=C(NCCc1ccccc1)Nc1nc2ccccc2s1,inhibition,MT-4,HIV-2,100 µg/mL,-,RT activity,96%
Nc1nc(=O)n([C@@H]2O[C@H](CO)[C@@H](O)[C@@H]2F)cc1I,inhibition,HELF,Varicella zoster virus,0.01 µg/mL,Ohtomo,plaque count,95%
CCCc1cc(=O)oc2cc(OS(=O)(=O)c3ccc(C)cc3)cc(OS(=O)(=O)c3ccc(C)cc3)c12,EC50,CV-1,Measles virus,-,Edmonston,cytopathic effect,5 µg/mL
CC(=O)OCCOCN1C(=N)/C(=C(\C)O)C(N)=NS1(=O)=O,EC50,VERO,Semliki Forest virus,-,-,-,>400 µg/mL
CC(N)C12CC3CC(CC(C3)C1)C2,EC50,MDCK,Influenza A virus,-,H3N2 A/LYON/5389/88,ELISA,0.039 µg/mL
Cc1nc(NC(=O)NCCc2ccccc2)sc1C,inhibition,MT-4,HIV-2,10 µg/mL,-,cytopathic effect / XTT,100%
O=c1[nH]c(=O)n([C@H]2C[C@H](O)[C@@H](CO)O2)cc1/C=C/Br,inhibition,HELF,Varicella zoster virus,0.001 µg/mL,Asahikawa,plaque count,0%
Cc1cn([C@@H]2OC3COP(=O)(O)OC3[C@H]2O)c(=O)nc1N,EC50,-,Vesicular stomatitis virus,-,-,-,>400 µg/mL
CC[C@H]1OC(=O)[C@H](C)C(=O)[C@H](C)[C@@H](O[C@@H]2O[C@H](C)C[C@H](N(C)C)[C@H]2O)[C@](C)(OC)C[C@@H](C)C(=O)[C@H](C)[C@H]2N(CCCCn3cnc(-c4cccnc4)c3)C(=O)O[C@]12C,MIC50,-,Haemophilus influenzae,-,25 strains,-,0.125 µg/mL
CCNCCCCNCCCCNCCCCNCCCCNCCCCNCCCCNCCCCNCCCCNCCCCNCCCCNCCCCNCCCCNCCCCNCC,EC50,-,Encephalitozoon cuniculi,-,-,-,0.54 µM
Nc1nc2c(ncn2C=C2CC2CO)c(=O)[nH]1,EC90,-,Human cytomegalovirus,-,VR6264 (ganciclovir-resistant),plaque count,7.8 µM
CCO/C(=N/NC(=O)NCc1ccc(Cl)cc1)C(C)(O)c1ccc(Cl)c(Cl)c1,inhibition,-,Plasmodium falciparum,5 µM,3D7,hypoxanthine uptake / radiometric,0%
O=C(NCc1ccc(Cl)cc1)c1c[nH]c2ccc(C#CCO)cc2c1=O,EC50,-,Rat cytomegalovirus,-,-,plaque count,0.6 µM
C=Cc1cn(OCCO)c(=O)[nH]c1=O,EC50,-,Duck hepatitis B virus,-,-,-,>10 µg/mL
C[C@@]1(O)[C@H](O)[C@@H](COP(=O)(O)OP(=O)(O)OP(=O)(O)O)O[C@H]1n1ccc2c(N)ncnc21,EC50,VERO,Dengue virus,-,TYPE 2,neutral red,15 µM
CC(C)c1cn([C@@H]2O[C@H](COP(=O)(O)O)[C@@H](O)[C@H]2O)c(=O)nc1N,EC50,-,Vesicular stomatitis virus,-,-,-,>400 µg/mL
Nc1nc(=O)n([C@H]2C[C@H](O)[C@@H](CO)O2)cc1/C=C\Cl,EC50,PRK,Bovine herpesvirus 1,-,LA (TYPE 1),cytopathic effect,>200 µg/mL
O=C1[C@@H](Cc2ccccc2)NC(=S)N1c1ccccc1,EC50,MT-4,HIV-2,-,-,cytopathic effect / XTT,<100 µg/mL
Cc1nc(N2CCC[C@H]2COC(C)C)nc(-n2ccnc2)c1[N+](=O)[O-],inhibition,-,Cytomegalovirus,0.6 µM,-,plaque count,99.9%
N=C(N)c1ccc(CNCCCCCCNCc2ccc(C(=N)N)cc2)cc1,EC50,-,Encephalitozoon cuniculi,-,-,-,95 µM
Cc1cc(-c2noc(C(F)(F)F)n2)cc(C)c1OCCCc1cccnn1,EC50,HeLa,Enterovirus,-,-,cytopathic effect,0.033–0.659 µg/mL
CCCc1cc(=O)oc2cc(OC(=O)C(C)(C)C)c3c(c12)OC(C)(C)C=C3,EC50,CV-1,Measles virus,-,X-1108,cytopathic effect,3.6 µg/mL
Cc1cc(OCCCc2ccc(=O)[nH]n2)cc(C)c1-c1noc(C(F)F)n1,EC50,HeLa,Enterovirus,-,-,cytopathic effect,0.033–0.659 µg/mL
N=C(N)c1ncn([C@@H]2O[C@H](CO)[C@@H](O)[C@H]2O)n1,EC50,-,Dengue virus,-,-,-,>100 µM
Cc1cc(OCCCc2ccc(CO)nn2)cc(C)c1-c1noc(C(F)(F)F)n1,EC50,HeLa,Enterovirus,-,-,cytopathic effect,0.033–0.659 µg/mL
CCNC(=S)N/N=C(/OCC)C(C)(O)c1ccc2ccccc2c1,inhibition,-,Plasmodium falciparum,5 µM,3D7,hypoxanthine uptake / radiometric,7%
CC(=O)N[C@H]1[C@H]([C@H](O)[C@H](O)CO)OC(C(=O)O)=C[C@@H]1N=C(N)N,EC50,MDCK,Influenza A virus,-,Influenza A/Sydney/05/97 (H3N2),visual reading,0.16 µM
OC[C@H]1O[C@@H](n2c(Br)nc3cc(Cl)c(Cl)cc32)[C@H](O)[C@@H]1O,EC50,MRC-5,Human cytomegalovirus,-,1038RB (ASP344GLU AND ALA355VAL),hybridisation,>20 µM
CCN(CC)CCN1C(=O)c2ccccc2NC1c1cc(OC)c(OC)c(OC)c1,EC50,-,Plasmodium berghei,-,ANKA,luciferase,4.1 µM
CCNC/C=C\CNC/C=C\CNC/C=C\CNC/C=C\CNCC,EC50,-,Encephalitozoon cuniculi,-,-,-,>1000 µM
CCCc1cc(=O)oc2c3c(c4c(c12)OC(C)(C)[C@H](O)[C@@H]4O)O[C@H](C)[C@@H](C)[C@@H]3O,EC50,CV-1,Measles virus,-,Edmonston,cytopathic effect,20 µg/mL
O=C1[C@@H](Cc2ccccc2)NC(=S)N1Cc1ccccc1,inhibition,MT-4,HIV-2,10 µg/mL,-,RT activity,59%
CC[C@@H](C(C)C)[C@H](O)[C@@H](O)[C@@H](C)[C@H]1CC[C@H]2[C@@H]3CC(=O)[C@@]4(O)C[C@@H](Br)CC[C@]4(C)[C@H]3CC[C@]12C,EC50,VERO,Pichinde virus,-,AN3739,plaque count,0.6 µM
CCO/C(=N/NC(=O)NCc1ccccc1)C(C)(O)c1ccc(Cl)c(Cl)c1,inhibition,-,Plasmodium falciparum,5 µM,3D7,hypoxanthine uptake / radiometric,19%
CCc1cn([C@@H]2O[C@H](COP(=O)(O)O)[C@@H](O)[C@H]2O)c(=O)nc1N,EC50,-,Vesicular stomatitis virus,-,-,-,>400 µg/mL
O=c1[nH]c(=O)n([C@@H]2O[C@H](CO)[C@@H](O)[C@@H]2O)cc1/C=C/Cl,inhibition,HELF,Varicella zoster virus,0.001 µg/mL,KANNO,plaque count,100%
CCOC(=O)N/N=C(/OCC)C(C)(O)c1ccc2ccccc2c1,inhibition,-,Plasmodium falciparum,5 µM,3D7,hypoxanthine uptake / radiometric,83%
Cc1cn([C@@H]2O[C@H](CO)[C@@H](O)[C@@H]2O)c(=O)[nH]c1=O,inhibition,HELF,Varicella zoster virus,0.1 µg/mL,KANNO,plaque count,99%
C/C(O)=C1\C(=N)N(COCCO)S(=O)(=O)N=C1N,EC50,VERO,Reovirus,-,TYPE 1,-,>400 µg/mL
CCNC/C=C\CNC/C=C\CNCCCCNCCCCNCC,EC50,-,Encephalitozoon cuniculi,-,-,-,>1000 µM
CCCc1cc(=O)oc2cc(OS(=O)(=O)c3ccc(C)cc3)cc(O)c12,EC50,CV-1,Measles virus,-,X-1108,cytopathic effect,0.3 µg/mL
Cc1cc(OCCCc2ccc(C(F)(F)F)nn2)cc(C)c1-c1noc(C(F)F)n1,EC50,HeLa,Enterovirus,-,-,cytopathic effect,0.033–0.659 µg/mL
CCOC(=O)C1=CN(COCCOC(C)=O)S(=O)(=O)N=C1N,EC50,VERO,Semliki Forest virus,-,-,-,>400 µg/mL
O=c1[nH]c(=O)n([C@H]2C[C@H](O)[C@@H](CO)O2)cc1/C=C\Cl,EC50,PRK,Equine herpesvirus 1,-,Kentucky (type 1),cytopathic effect,>200 µg/mL
Nc1ncnc2c1c(Br)cn2COCCO,EC50,GPE,Guinea pig herpesvirus,-,Lymphotropic,virus yield,<160 µg/mL
CCN(CC)CCN1C(=O)c2ccccc2NC1c1ccc(OC)c(COc2cc(C(C)C)c(Cl)cc2C)c1,EC50,-,Plasmodium berghei,-,ANKA,luciferase,5.9 µM
CCOC(=O)c1ccc(OCCC2CCN(c3ccc(C)nn3)CC2)cc1,EC50,KB,Rhinovirus,-,211-CV13 (ICAM-1 receptor group 9),neutral red,0.022 µM
CC(=O)c1ccc(CCCOc2cc(C)c(-c3noc(C(F)F)n3)c(C)c2)nn1,EC50,HeLa,Enterovirus,-,-,cytopathic effect,0.033–0.659 µg/mL
CCN(CC)CCN1C(=O)c2ccccc2NC1c1ccccc1F,EC50,-,Plasmodium berghei,-,ANKA,luciferase,>20 µM
O=C(NCCc1ccccc1)Nc1nncs1,inhibition,MT-4,HIV-2,1 µg/mL,-,RT activity,100%
CC(C)c1cn([C@@H]2OC3COP(=O)(O)OC3[C@H]2O)c(=O)nc1N,EC50,-,Vesicular stomatitis virus,-,-,-,>400 µg/mL
Cc1ccc(CCCOc2cc(C)c(-c3noc(C(F)(F)F)n3)c(C)c2)nn1,EC50,HeLa,Enterovirus,-,-,cytopathic effect,0.033–0.659 µg/mL
O=C(NCCc1ccccc1)Nc1nc2ccc(F)cc2s1,inhibition,MT-4,HIV-2,1 µg/mL,-,RT activity,77%
CC(=O)OCCOCN1C=C(C#N)C(N)=NS1(=O)=O,EC50,VERO,Semliki Forest virus,-,-,-,>400 µg/mL

A second listing of 7 rows from above:

compound	endpoint	cells	organism	tested at	strain or isolate	method	result
Nc1nc(=O)n([C@H]2C[C@H](O)[C@@H](CO)O2)cc1/C=C\Cl	EC50	PRK	Bovine herpesvirus 1	-	LA (TYPE 1)	cytopathic effect	>200 µg/mL
C=Cc1cn(OCCO)c(=O)[nH]c1=O	EC50	-	Duck hepatitis B virus	-	-	-	>10 µg/mL
Cc1nc(NC(=O)NCCc2ccccc2)sc1C	inhibition	MT-4	HIV-2	10 µg/mL	-	cytopathic effect / XTT	100%
CCO/C(=N/NC(=O)NCc1ccc(Cl)cc1)C(C)(O)c1ccc(Cl)c(Cl)c1	inhibition	-	Plasmodium falciparum	5 µM	3D7	hypoxanthine uptake / radiometric	0%
CCNC/C=C\CNC/C=C\CNC/C=C\CNC/C=C\CNCC	EC50	-	Encephalitozoon cuniculi	-	-	-	>1000 µM
Cc1cn([C@@H]2O[C@H](CO)[C@@H](O)[C@@H]2O)c(=O)[nH]c1=O	inhibition	HELF	Varicella zoster virus	0.1 µg/mL	KANNO	plaque count	99%
CCCc1cc(=O)oc2c3c(c4c(c12)OC(C)(C)[C@H](O)[C@@H]4O)O[C@H](C)[C@@H](C)[C@@H]3O	EC50	CV-1	Measles virus	-	Edmonston	cytopathic effect	20 µg/mL